The index is printed as in the source, without its formula.

This data set relates to Influenza A H1N1\WSN\33. The class given is cell-based, Influenza A virus.
With `Cc1onc(-c2ccc(O)cc2)c1C(=O)N1CCN(c2ccc([N+](=O)[O-])cc2Cl)CC1` [Compound 1, [4-(2-chloro-4-nitro-pheny1)-piperazin-1-yl]-[3-(4-hydroxy-pheny1)-5-methylisoxazol-4-yl]-methanone], the “Selective Index (SI)” value is given as over 5000.
As for `Cc1onc(-c2ccc(N=[N+]=[N-])cc2)c1C(=O)N1CCN(c2ccc([N+](=O)[O-])cc2Cl)CC1` [Compound 4, [4-(2-chloro-4-nitro-pheny1)-piperazin-1-yl]-[3-(4-azido-pheny1)-5-methylisoxazol-4-yl]-methanone], the “Selective Index (SI)” value is reported as over 1000.
On to `Cc1onc(-c2ccccc2Cl)c1C(=O)N1CCN(c2ccc([N+](=O)[O-])cc2)CC1` [Compound 8, [4-(4-nitro-pheny1)-piperazin-1-yl]-[3-(2-chloro-phenyl)-5-methyl-isoxazol-4-yl]-methanone], for which the “Selective Index (SI)” value is over 49.
With `Cc1onc(-c2ccccc2Cl)c1C(=O)N1CCN(c2ccc([N+](=O)[O-])cc2Cl)CC1` [Compound 5, [4-(2-chloro-4-nitro-pheny1)-piperazin-1-yl]-[3-(2-chloro-phenyl)-5-methylisoxazol-4-yl]-methanone] the figure was over 6250.

The values are drawn from patent US9212177B2, “Antiviral compounds and methods of making and using thereof” (Versitech Limited, priority 2009, dated 2015).
